{
  "source": "patent US9730944B2",
  "about": "“Antiviral activity of novel bicyclic heterocycles” (priority 2010, dated 2017)",
  "system": "genotype 1a H-77 replicon",
  "assay": "HCV-1a replicon potency in RLuc-1 cells, bioluminescence",
  "assay_type": "cell-based",
  "settings": "CC50/EC50, genotype 1a replicon",
  "data": [
    {"smiles": "CCCc1nc2c(N3CCN(C(=O)COc4ccc(Cl)cc4)CC3)nc(N)nc2[nH]1", "note": "[Example 397, 1-(4-(2-amino-8-propyl-9H-purin-64)piperazin-1-yl)-2-(4-chlorophenoxy)ethanone]", "values": [
      {"measurement": "HCV-1a Replicon Selectivity Index", "value": ">39"}
    ]},
    {"smiles": "Nc1nc(NCc2ccccc2)c2cc(-c3ccc(F)cc3)sc2n1", "note": "[Example 327, 2-amino-4-N-benzylamino-6-(4-fluorophenyl)-thieno[2,3-d]pyrimidine]", "values": [
      {"measurement": "HCV-1a Replicon Selectivity Index", "value": 0.6}
    ]}
  ]
}
